# PubChem BioAssay AID1224833, University of Georgia, 2016
# Screen: 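Human genes whose knock-down alters rotavirus replication in monkey cells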 (primary screen)
# Cells: monkey MA104 kidney cells
# Reagents: siRNA pool against human genes, 50 nM
# Duration: 48 h knock-down before infection; read 24 h after infection
# Challenge: infection with rotavirus strain RV3 two days after transfection; infectious dose for this stage not given
# Measured: 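Rotavirus antigen per well by fluorescent immunoassay, normalised to non-targeting control wells on each plate and given as a standard z-score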
# Scale: z-score vs non-targeting control: higher = more rotavirus replication than with non-targeting control
# Call rule: In these data the active calls have z-score vs non-targeting control at about -1 or lower, or at about 1 or higher
# Meaning of the calls: active = z-score beyond 1 either way; inactive = z-score within 1 of zero
# The deposit covers about 12,000 reagents; below is a part drawn at random. Of all reagents, about 5,600 (46%) got an active call. 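Active calls cover z-scores past 1 in both directions, so they include lowered as well as raised rotavirus replication.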
gene,z-score vs non-targeting control,call
"ERCC8 (ERCC excision repair 8, CSA ubiquitin ligase complex subunit)",2.12,active
TFPI (tissue factor pathway inhibitor),-0.695,inactive
LPIN1 (lipin 1),0.793,inactive
FAM32A (family with sequence similarity 32 member A),1.04,active
IBTK (inhibitor of Bruton tyrosine kinase),0.369,inactive
CAST (calpastatin),-1.55,active
POGLUT2 (protein O-glucosyltransferase 2),-0.955,inactive
FGF22 (fibroblast growth factor 22),-2.84,active
CDC5L (cell division cycle 5 like),-0.537,inactive
PLD1 (phospholipase D1),1.08,active
CCDC71 (coiled-coil domain containing 71),1.24,active
NUDT13 (nudix hydrolase 13),-0.544,inactive
PACS1 (phosphofurin acidic cluster sorting protein 1),-0.629,inactive
CUTA (cutA divalent cation tolerance homolog),0.583,inactive
ESAM (endothelial cell adhesion molecule),1.03,active
GDI1 (GDP dissociation inhibitor 1),0.632,inactive
ZNF257 (zinc finger protein 257),-0.785,inactive
HMGN4 (high mobility group nucleosomal binding domain 4),0.303,inactive
MS4A3 (membrane spanning 4-domains A3),1.96,active
MAGEF1 (MAGE family member F1),-0.559,inactive
LRP1 (LDL receptor related protein 1),-1.08,active
DDIT4 (DNA damage inducible transcript 4),1.04,active
CASC3 (CASC3 exon junction complex subunit),-0.181,inactive
NEDD9,-1.67,active
GADD45A (growth arrest and DNA damage inducible alpha),0.734,inactive
F2R (coagulation factor II thrombin receptor),-1.77,active

Records listed so far whose target name begins with P or p (3):
gene,z-score vs non-targeting control,call
POGLUT2 (protein O-glucosyltransferase 2),-0.955,inactive
PLD1 (phospholipase D1),1.08,active
PACS1 (phosphofurin acidic cluster sorting protein 1),-0.629,inactive

The results go on:
gene,z-score vs non-targeting control,call
MS4A14 (membrane spanning 4-domains A14),-0.646,inactive
DDX47 (DEAD-box helicase 47),0.99,inactive
ADCYAP1R1 (ADCYAP receptor type I),-1.18,active
FHL3 (four and a half LIM domains 3),-0.614,inactive
SMPD2 (sphingomyelin phosphodiesterase 2),3.44,active
SEPHS2 (selenophosphate synthetase 2),-1.18,active
CAMLG (calcium modulating ligand),-0.506,inactive
SPATS1 (spermatogenesis associated serine rich 1),-1.42,active
ZNF678 (zinc finger protein 678),-1.09,active
SPDYC (speedy/RINGO cell cycle regulator family member C),2.27,active
CIMAP1A (ciliary microtubule associated protein 1A),0.872,inactive
ATP1A3 (ATPase Na+/K+ transporting subunit alpha 3),-0.939,inactive
KDELR3 (KDEL endoplasmic reticulum protein retention receptor 3),2.51,active
ZNF70 (zinc finger protein 70),0,inactive
POMT1 (protein O-mannosyltransferase 1),-0.651,inactive
ING4 (inhibitor of growth family member 4),-0.182,inactive
NECAP1 (NECAP endocytosis associated 1),0.275,inactive
USP35 (ubiquitin specific peptidase 35),-1.12,active
PFN3 (profilin 3),-1.4,active
GZMA (granzyme A),-0.602,inactive
TMEM217 (transmembrane protein 217),0.393,inactive
ARHGEF28 (Rho guanine nucleotide exchange factor 28),0.0595,inactive
GATD1 (glutamine amidotransferase class 1 domain containing 1),-1.53,active
KRTAP4-5 (keratin associated protein 4-5),-1.74,active
ARFGAP3 (ARF GTPase activating protein 3),-2,active
NXT1 (nuclear transport factor 2 like export factor 1),-1.34,active
CCDC42 (coiled-coil domain containing 42),1.51,active
TM9SF2 (transmembrane 9 superfamily member 2),-0.805,inactive
NPAP1 (nuclear pore associated protein 1),1,inactive
TDRD9 (tudor domain containing 9),-0.656,inactive
TAAR9 (trace amine associated receptor 9),-1.36,active
"FAM199X (family with sequence similarity 199, X-linked)",-0.903,inactive
SUN1 (Sad1 and UNC84 domain containing 1),-0.901,inactive
NTAQ1 (N-terminal glutamine amidase 1),0.541,inactive
COPS8 (COP9 signalosome subunit 8),2.81,active
ZNF19 (zinc finger protein 19),-0.917,inactive
TTLL11 (tubulin tyrosine ligase like 11),0.163,inactive
SMAD9 (SMAD family member 9),-1.06,active
MITD1 (microtubule interacting and trafficking domain containing 1),-0.635,inactive
CRYZL1 (crystallin zeta like 1),-2.65,active
PUS7L (pseudouridine synthase 7 like),-1.35,active
"TRMT10C (tRNA methyltransferase 10C, mitochondrial RNase P subunit)",-0.222,inactive
MPIG6B (megakaryocyte and platelet inhibitory receptor G6b),-0.143,inactive
LRRC75B (leucine rich repeat containing 75B),-1.19,active
CHMP4B (charged multivesicular body protein 4B),-0.773,inactive
GPC1 (glypican 1),-2.11,active
XKR5 (XK related 5),-1.34,active
ANK1 (ankyrin 1),0.798,inactive
"RAN (RAN, member RAS oncogene family)",0.998,inactive
